Results reported in paper PMC5887915.

Molecular target: HLA-A*0201 (alpha-chain refolded with beta2m)
Assay: circular dichroism thermal melting

Substance: ELA peptide (…), Melan-A 26-35 (A27L)
- Tm (melting temperature of the peptide-HLA complex): 63 °C
